A mixed list of measured activities; the numbers were collected in NIAID ChemDB.

Shared fields: whole-cell or culture tests; agent: Aspergillus niger; endpoint: MIC

a–b is a range or a potency band. Neighbouring rows are from separate reports. An empty or dashed field is not shown.

structure,strain or isolate,result
CC(C)(C)COC(=O)N[C@H](Cc1cn(Cc2cccc([N+](=O)[O-])c2)nn1)C(=O)OCc1cn(Cc2cccc([N+](=O)[O-])c2)nn1,MTCC 281,9.2 µM
CC(=O)CC(C)n1c2c(=O)c3ccccc3c(=O)c=2oc2ccc(C)cc21,VKM F-1119,31.2 µg/mL
CC(C)(C)COC(=O)N[C@H](Cc1cn(CCc2ccccc2)nn1)C(=O)OCc1cn(CCc2ccccc2)nn1,MTCC 281,20.2 µM
Cc1cc(NC(=O)CCN2C(=O)S/C(=C\c3cccc(Br)c3)C2=O)ccc1Cl,,>100 µg/mL
CCn1cc(C(=O)O)c(=O)c2cc(F)c(N3CCN(CN4C(=O)/C(=N\c5ncc(Cc6cc(OC)c(OC)c(OC)c6)c(N)n5)c5ccccc54)CC3)cc21,,78.12 µg/mL
Cc1ccc(NC(=O)CCN2C(=O)S/C(=C\c3ccccc3Cl)C2=O)cc1,,>100 µg/mL
CC(=Nc1cccc2cccc(N=C(C)c3c(O)ccc4c(C)cc(=O)oc34)c12)c1c(O)ccc2c(C)cc(=O)oc12,MTCC 1881,15 µg/mL
Fc1cccc(CO/N=C2\c3ccccc3OCC2n2cncn2)c1,ATCC 16401,2 µg/mL
CC(=O)CC(C)n1c2c(=O)c3ccccc3c(=O)c=2oc2ccccc21,VKM F-1119,15.6 µg/mL
COc1ccc(Cc2cn(Cc3ccc(O)cc3)c(/N=C3/NC(=O)N(C)C3=O)n2)cc1,ATCC 9642,>100 µg/mL
Cc1cccc(Cn2cc(COC(=O)[C@@H](Cc3cn(Cc4cccc(C)c4)nn3)NC(=O)OCC(C)(C)C)nn2)c1,MTCC 281,10.1 µM
CCN=C(Nc1cccc(OC)c1)N(CC)c1nc2cc(OC)ccc2s1,,80–100 µg/mL
CC(NCC(=O)Nc1cccc2c1C(=O)c1ccccc1C2=O)C(=O)O,VKM F-1119,31.2 µg/mL
CCC(C)CCCCCCCCCCC(=O)N[C@H]1C[C@@H](O)[C@@H](O)NC(=O)C2[C@@H](O)[C@@H](C)CN2C(=O)C(CO)NC(=O)C([C@H](O)C(O)c2ccc(O)cc2)NC(=O)NC(=O)[C@@H]2C[C@@H](O)CN2C(=O)[C@H]([C@@H](C)O)NC1=O,,31.25 µg/mL
Cc1ccc(NC(=O)CCN2C(=O)S/C(=C\c3ccc(O)c(O)c3O)C2=O)cc1,,50 µg/mL
COC(=O)[C@@H]1CCCN1C(=O)CNC(=O)[C@H](C)NC(=O)[C@@H]1CCCN1C(=O)c1ccccc1-c1cnc(C)[nH]1,,12.5 µg/mL
CCn1cc(C(=O)O)c(=O)c2cc(F)c(N3CCN(CN4C(=O)C(=Nc5ccc(S(=O)(=O)Nc6ncccn6)cc5)c5cc(Cl)ccc54)CC3)cc21,,156 µg/mL
O=C(N[C@H](Cc1cn(Cc2ccc([N+](=O)[O-])cc2)nn1)C(=O)OCc1cn(Cc2ccc([N+](=O)[O-])cc2)nn1)OCc1ccccc1,MTCC 281,17.8 µM
CC[C@@]1(O)C(=O)OCc2c1cc1n(c2=O)Cc2cc3c(CN(C)C)c(O)ccc3nc2-1,NCPF 7162,>100 µM
COC(=O)[C@H](CC(C)C)NC(=O)CNC(=O)[C@@H](NC(=O)[C@H](Cc1ccccc1)NC(=O)COc1cc(=O)oc2ccccc12)[C@@H](C)O,,12.5 µg/mL
C/C(=N\NC(=S)Nc1cccc(Cl)c1)c1c(O)ccc2c(C)cc(=O)oc12,,10 µg/mL
Cc1ncc(-c2ccc(I)cc2C(=O)N[C@@H](Cc2ccccc2)C(=O)NCC(=O)N[C@@H](Cc2ccccc2)C(=O)O)[nH]1,,50 µg/mL
Cc1cc(NC(=O)CCN2C(=O)S/C(=C\c3ccccc3)C2=O)ccc1Cl,,25 µg/mL
Cc1cc(=O)oc2c(C=Nc3ccccc3N=Cc3c(O)ccc4c(C)cc(=O)oc34)c(O)ccc12,,10 µg/mL
C/C=C/[C@@H]1OC(=O)C=C[C@@H]1O,,739 µg/mL
COC(=O)[C@@H]1CCCN1C(=O)COc1c(Br)c(=O)oc2ccccc12,,12.5 µg/mL
CCCCCCCCCCSCC(O)C(=O)O,ATCC 16404,0.00553 µM
Fc1ccccc1CO/N=C1/c2ccccc2OCC1n1cncn1,ATCC 16401,32 µg/mL
CCN=C(Nc1ccccc1OC)N(CC)c1nc2c(OC)cccc2s1,,100–120 µg/mL
O=C(O)CCCNCC(=O)Nc1cccc2c1C(=O)c1ccccc1C2=O,VKM F-1119,1.9 µg/mL
CCn1cc(C(=O)O)c(=O)c2cc(F)c(N3CCN(CN4C(=O)C(=Nc5ccc(S(=O)(=O)Nc6ncccn6)cc5)c5ccccc54)CC3)cc21,,156 µg/mL
CC[C@H](C)[C@H](NC(=O)[C@H](Cc1cnc[nH]1)NC(=O)COc1cc(=O)oc2ccccc12)C(=O)OC,,12.5 µg/mL
CCOC(=O)/C=C(/C)n1c2c(=O)c3ccccc3c(=O)c=2oc2ccc(C)cc21,VKM F-1119,500 µg/mL
CCN=C(Nc1cccc(C)c1)N(CC)c1nc2cc(C)ccc2s1,,120–150 µg/mL
Clc1ccc(CO/N=C2\c3ccccc3OCC2n2cncn2)cc1,ATCC 16401,16 µg/mL
COC(=O)[C@@H]1CCCN1C(=O)[C@H](Cc1cnc[nH]1)NC(=O)[C@H](C)NC(=O)[C@@H](NC(=O)c1cc(I)ccc1-c1cnc(C)[nH]1)[C@@H](C)O,,12.5 µg/mL
Cc1cc(=O)oc2c(C=NCCN=Cc3c(O)ccc4c(C)cc(=O)oc34)c(O)ccc12,,10 µg/mL
O=C(COc1c(Br)c(=O)oc2ccccc12)N[C@@H](Cc1cnc[nH]1)C(=O)O[C@@H](Cc1c[nH]c2ccccc12)C(=O)O,,12.5 µg/mL
CCn1sc(=Nc2ccccc2OC)n(CC)c1=Nc1ccccc1OC,,100–120 µg/mL
C[C@H]1N(C(=O)c2ccc(C(F)(F)F)cc2)CCO[C@@]1(Cn1cncn1)c1ccc(F)cc1F,Isolate 1,>64 µg/mL
COC(=O)[C@H](C)OC(=O)[C@H](Cc1cnc[nH]1)NC(=O)CNC(=O)[C@H](Cc1cnc[nH]1)NC(=O)COc1c(Br)c(=O)oc2ccccc12,,12.5 µg/mL
O=C(CN1CCOCC1)Nc1nc(-c2ccccc2)cc(-c2ccc(F)cc2)n1,,25 µg/mL
Clc1ccc(CO/N=C2\c3ccccc3OCC2n2cncn2)cc1Cl,ATCC 16401,1 µg/mL
CCN=C(Nc1ccc(C(C)=O)cc1)N(CC)c1nc2ccc(C(C)=O)cc2s1,,100–120 µg/mL
CN1CCN(c2nc(Nc3ccc(C#N)c(C(F)(F)F)c3)nc(Oc3ncnc4ccccc34)n2)CC1,MTCC 282,>100 µg/mL
Cc1cc(C)cc(/C=C2\SC(=O)N(CCC(=O)Nc3ccccc3O)C2=O)c1,,50 µg/mL
Brc1cc(Br)c(N2COc3c(ccc4ccccc34)C2)c(Br)c1,NCIM 545,20 µg/mL
OC(Cn1cncn1)(Cn1cncn1)c1ccc(F)cc1F,KCTC 1231,1.6 µg/mL
Cc1ccccc1N1COc2c(ccc3ccccc23)C1,NCIM 545,25 µg/mL
Cc1ccccc1Cn1cc(COC(=O)[C@@H](Cc2cn(Cc3ccccc3C)nn2)NC(=O)OCc2ccccc2)nn1,MTCC 281,9.8 µM
N#Cc1ccc(Nc2nc(Oc3ncnc4ccccc34)nc(N3CCN(c4ccccc4)CC3)n2)cc1C(F)(F)F,MTCC 282,>100 µg/mL
CC(=O)[C@]1(O)Cc2c(O)c3c(c(O)c2[C@@H](O[C@H]2C[C@H](N)[C@H](O)[C@H](C)O2)C1)C(=O)c1ccccc1C3=O,NCPF 7162,14.2 µM
O=C(O)CNCC(=O)Nc1cccc2c1C(=O)c1ccccc1C2=O,VKM F-1119,1.9 µg/mL
O=C(CCN1C(=O)S/C(=C\c2ccccc2Cl)C1=O)Nc1ccc([N+](=O)[O-])cc1,,12.5 µg/mL
O=C(N[C@H](Cc1cn(Cc2ccccc2)nn1)C(=O)OCc1cn(Cc2ccccc2)nn1)OCc1ccccc1,MTCC 281,10.3 µM
Fc1ccc(N2COc3c(ccc4ccccc34)C2)cc1,NCIM 545,10 µg/mL
Fc1ccc(CO/N=C2/c3ccccc3OCC2n2cncn2)cc1,ATCC 16401,32 µg/mL
CCC(C)n1ncn(-c2ccc(N3CCN(c4ccc(OC[C@H]5CO[C@](Cn6cncn6)(c6ccc(Cl)cc6Cl)O5)cc4)CC3)cc2)c1=O,ATCC 9642,0.2 µg/mL
Cc1ccc(Cn2cc(COC(=O)[C@@H](Cc3cn(Cc4ccc(C)cc4)nn3)NC(=O)OCC(C)(C)C)nn2)cc1,MTCC 281,20.2 µM
O=C(N/N=C/c1cc([N+](=O)[O-])ccc1O)c1ccc(I)cc1,Strain 1,0.4 µg/mL
CCn1cc(C(=O)O)c(=O)c2cc(F)c(N3CCN(CN4C(=O)C(=Nc5ccc(S(=O)(=O)Nc6ncnc(OC)c6OC)cc5)c5ccccc54)CC3)cc21,,9.76 µg/mL
COC(=O)[C@H](C)NC(=O)[C@H](Cc1c[nH]c2ccccc12)NC(=O)c1ccccc1-c1cnc(C)[nH]1,,12.5 µg/mL
COc1c(CN(C)C)cccc1C1OC(c2ccncc2)=NN1C(C)=Nc1ccccc1F,MTCC 8189,12.5 µg/mL
Fc1ccc(CO/N=C2\c3ccccc3OCC2n2cncn2)cc1,ATCC 16401,8 µg/mL
Cc1cccc(Cn2cc(COC(=O)[C@@H](Cc3cn(Cc4cccc(C)c4)nn3)NC(=O)OCc3ccccc3)nn2)c1,MTCC 281,9.8 µM
CCn1cc(C(=O)O)c(=O)c2cc(F)c(N3CCN(CN4C(=O)C(=Nc5ccc(S(=O)(=O)Nc6ncnc(OC)c6OC)cc5)c5cc(Br)ccc54)CC3)cc21,,19.35 µg/mL

A second listing of 6 rows from above:

CCn1cc(C(=O)O)c(=O)c2cc(F)c(N3CCN(CN4C(=O)/C(=N\c5ncc(Cc6cc(OC)c(OC)c(OC)c6)c(N)n5)c5ccccc54)CC3)cc21 ; result: 78.12 µg/mL
C/C=C/[C@@H]1OC(=O)C=C[C@@H]1O ; result: 739 µg/mL
COc1ccc(Cc2cn(Cc3ccc(O)cc3)c(/N=C3/NC(=O)N(C)C3=O)n2)cc1 ; strain or isolate: ATCC 9642 ; result: >100 µg/mL
Fc1ccc(CO/N=C2/c3ccccc3OCC2n2cncn2)cc1 ; strain or isolate: ATCC 16401 ; result: 32 µg/mL
O=C(CN1CCOCC1)Nc1nc(-c2ccccc2)cc(-c2ccc(F)cc2)n1 ; result: 25 µg/mL
Cc1cc(NC(=O)CCN2C(=O)S/C(=C\c3cccc(Br)c3)C2=O)ccc1Cl ; result: >100 µg/mL